Measured values from several laboratories, pooled; numbers as filed in NIAID ChemDB.

Shared fields: growth or infection tests; species: Rhinovirus

ECn: concentration that inhibits the pathogen or its effect by n%. Rows are shuffled and stem from different studies. MIC50, MIC90 and the like: level of inhibition, or share of isolates inhibited. An empty or dashed field is not shown.

smiles,strain,read-out,cell line,method,value
Cc1nc(N)c2ncn([C@@H]3O[C@H](CO)[C@@H](O)[C@H]3O)c2n1,Type 1A/strain 2060,EC50,KB,cytopathic effect,100 µg/mL
CN(C)c1ncnc2c1ncn2Cc1ccc(C#N)cc1,Serotype 1B,EC50,M-HELA,plaque count,>50 µM
CCOC(=O)c1ccc(OCCCCC(=O)c2ccc(C)c(Cl)c2)cc1,Serotype 14,EC50,HeLa,cytopathic effect,140 µM
Cc1nc(-c2cc(C)c(OCCCc3cc(C(F)(F)F)no3)c(C)c2)no1,Serotype 2,EC50,HeLa,cytopathic effect,0.04 µg/mL
CS(=O)(=O)c1ccc(Cc2ccc(Cl)c(Cl)c2)nc1,HTYPE NK'S,EC50,HeLa,cytopathic effect,>10 µg/mL
O=C(O)c1ccc(C2CC(=O)c3cc(Cl)ccc3O2)cc1,TYPE 1B,EC50,OHIO HELA,plaque count,>25 µM
N#Cc1ccc(C2CCc3ccccc3O2)cc1,TYPE 1B,EC50,HeLa,cytopathic effect,40 µM
N=C1c2ncn([C@@H]3O[C@H](CO)[C@@H](O)[C@H]3O)c2NCN1OCc1ccc(F)cc1,Type 1A/strain 2060,EC50,KB,cytopathic effect,100 µg/mL
O=C(CCCCOc1ccc(C2=NCCO2)cc1)c1ccccc1,serotype 1A 1B 2 6 14 15 21 22 25 29 30 41 42 45 59 63 67 70 72 86 89,MIC80,-,-,>51 µM
Cc1ccc(C(=O)CCCCOc2ccc(C3=NC(C)CO3)cc2)s1,TYPE 14,EC50,HeLa,cytopathic effect,0.56 µM
CCc1cc(CCCOc2c(C)cc(-c3nnc(C)o3)cc2C)on1,serotype 2 1A 1B 6 14 21 22 15 25 30 50 67 89 86 41,EC80,HeLa,plaque count,0.15 µg/mL
Cc1ccc(C(=O)CCCCOc2ccc(C3=NCCO3)cc2)cc1C,Serotype 14,EC50,HeLa,cytopathic effect,57 µM
Cc1cc(CCCOc2c(C)cc(-c3noc(C)n3)cc2C)on1,serotype 2 1A 1B 6 14 21 22 15 25 30 50 67 89 86 41,EC50,HeLa,plaque count,0.012 µg/mL
Cc1c(-c2ccccc2)n(-c2cccc(F)c2)c2ccc(C(C)C)cc2c1=O,50/A2#58,EC50,HELA-OHIO,cytopathic effect,0.023 µg/mL
CCOC(=O)/C=C/[C@H](C[C@@H]1CCNC1=O)NC(=O)[C@H](Cc1ccc(F)cc1)NC(=O)[C@@H](NC(=O)c1cc(C)on1)C(C)C,Serotype 10,EC50,-,-,<0.14 µM
CCc1ccc(Cn2cnc3c(N(C)C)nc(Cl)nc32)cc1,Serotype 8,EC50,M-HELA,plaque count,>4 µM
Cc1ccc(C(=O)CCCCOc2ccc(C#N)cc2)cc1,serotype 1A 1B 2 6 14 15 21 22 25 29 30 41 42 45 59 63 67 70 72 86 89,MIC80,-,-,>146 µM
N=C1c2ncn([C@@H]3O[C@H](CO)[C@@H](O)[C@H]3O)c2NCN1OCc1ccccc1,Type 1A/strain 2060,EC50,KB,cytopathic effect,320 µg/mL
CC(C)Oc1ccc(Cn2cnc3c(N(C)C)nc(C(F)(F)F)nc32)cc1,Serotype 21,EC50,M-HELA,plaque count,>8 µM
Cc1ccc(CON2CNc3c(ncn3[C@@H]3O[C@H](CO)[C@@H](O)[C@H]3O)C2=N)cc1,Type 1A/strain 2060,EC50,KB,cytopathic effect,100 µg/mL
CCc1nc(-c2cc(C)c(OCCCc3cc(COC)no3)c(C)c2)no1,Serotype 1B,EC50,HeLa,cytopathic effect,0.069 µg/mL
O=C(/C=C(\O)c1ccccc1O)/C=C/c1ccc(O)cc1,Serotype 1B,EC50,HeLa,plaque count,>12.5 µM
COC(=O)C(Cc1ccc(OCCCCC(=O)c2ccc(C)s2)cc1)NC(C)=O,TYPE 14,EC50,HeLa,cytopathic effect,>86 µM
CCOc1cc(OC)ccc1-c1cc(N(CC)CC)no1,Serotype 29 (group B),EC50,HeLa,cytopathic effect,>90 µM
CCSc1nc2ccc(OCCC3CCN(c4nnc(C)s4)CC3)cc2o1,Serotype 2,EC50,MRC-5,cytopathic effect,0.061 µg/mL
COc1ccc(-c2cc(N3CCCC3)no2)c(O)c1,Serotype 15 (group B),EC50,HeLa,cytopathic effect,>384 µM
CN(C)c1nc(Cl)nc2c1ncn2Cc1ccc(Cl)cc1,Serotype 19,EC50,M-HELA,plaque count,>5 µM
N#Cc1cc([N+](=O)[O-])ccc1Oc1ccc(Cl)c(Cl)c1,HANK,EC50,HeLa,cytopathic effect,1.5 µg/mL
Cc1ccc(C(=O)CCCCOc2ccc(C3=NCC(C)O3)cc2)s1,TYPE 2,EC50,HeLa,cytopathic effect,1.96 µM
CCOC(=O)c1ccc(OCCC2CCN(c3ccc(C)nn3)CC2)cc1,211-CV13 (ICAM-1 receptor group 9),EC50,KB,neutral red,0.022 µM
Cc1ccc(Cn2cnc3c(N(C)C)nc(C(F)(F)F)nc32)cc1,Serotype 21,EC50,M-HELA,plaque count,>8 µM
O=c1cc(-c2ccc(C3=NCCO3)cc2)oc2ccccc12,TYPE 1B,EC50,OHIO HELA,plaque count,>25 µM
CCn1c2c(c(=O)c3cc(C(C)C)ccc31)Cc1ccccc1-2,1B/B632,EC50,HELA-OHIO,cytopathic effect,0.3 µg/mL
N#Cc1ccc2c(c1)CCC(c1ccc(Cl)cc1)O2,TYPE 1B,EC50,HeLa,cytopathic effect,0.03 µM
CCOc1nc2cc(OCCC3CCN(c4ccc(C)nn4)CC3)ccc2s1,Serotype 14,EC50,MRC-5,cytopathic effect,0.014 µg/mL
C#CCOc1cc(OC)ccc1-c1cc(N(CC)CC)no1,Serotype 45 (group A),EC50,HeLa,cytopathic effect,>40 µM
Cc1cc(CCCCCOc2c(C)cc(-c3nnc(C)o3)cc2C)on1,serotype 2 1A 1B 6 14 21 22 15 25 30 50 67 89 86 41,EC80,HeLa,plaque count,0.42 µg/mL
Cc1ccc(C(=O)CCCCOc2ccc(C3=N[C@@H](C)CO3)cc2)s1,TYPE 14,EC50,HeLa,cytopathic effect,0.28 µM
Clc1ccc(C2COc3ccccc3C2)cc1,Serotype 1B,EC50,M-HELA,cytopathic effect,1.64 µM
CSc1ccc(C(=O)CCCCOc2ccc(C3=NCCO3)cc2)cc1,Serotype 2,EC50,HeLa,cytopathic effect,>271 µM
c1cc(C2CCc3cc(C4=NCCO4)ccc3O2)ccc1C1=NCCO1,TYPE 1B,EC50,HeLa,plaque count,1.64 µM
CCN(CC)c1cc(-c2ccc(OC)cc2OC)on1,Serotype 72 (group A),EC50,HeLa,cytopathic effect,>362 µM
CN(C)c1nc(C(F)(F)F)nc2c1ncn2Cc1cccc(F)c1,Serotype 31,EC50,M-HELA,plaque count,>8 µM
CCOC(=O)c1ccc(OCCC2CCN(c3ccc(C)nn3)CC2)cc1,Serotype 5,EC50,WI-38,cytopathic effect,<0.1 µg/mL
Cc1ccc(C(=O)CCCCCCOc2ccc(C3=NCC(C)O3)cc2)s1,TYPE 2,EC50,HeLa,cytopathic effect,2.07 µM
CCN(CC)c1cc(-c2ccc(O)cc2O)on1,Serotype 14,EC50,HeLa,cytopathic effect,>121 µM
CS(=O)(=O)c1ccc(NCc2ccc(Cl)c(Cl)c2)nc1,TYPE 39,EC50,HeLa,cytopathic effect,5 µg/mL
CN(C)c1ccc(Cn2cnc3c(N(C)C)nc(C(F)(F)F)nc32)cc1,Serotype 1B,EC50,M-HELA,plaque count,0.29 µM
CSc1nc2ccc(OCCC3CCN(c4ccc(Cl)nn4)CC3)cc2o1,Serotype 14,EC50,MRC-5,cytopathic effect,0.146 µg/mL
Cc1ccc(C(=O)CCCCCCOc2ccc(C3=NC(C)(C)CO3)cc2)s1,TYPE 14,EC50,HeLa,cytopathic effect,0.27 µM
Cc1ccc(Cn2cnc3c(N(C)C)nc(C(F)(F)F)nc32)cc1,TYPE 21,EC50,M-HELA,plaque count,>8 µM
Cc1ccc(/C=C/C(=O)/C=C(\O)c2ccccc2O)cc1,Serotype 1B,EC50,HeLa,plaque count,11.88 µM
COc1ccc(C(=O)CCCCOc2ccc(C#N)cc2)cc1,Serotype 14,EC50,HeLa,cytopathic effect,>253 µM
Fc1cccc(Cn2cnc3c(Nc4cccc(F)c4)nc(C(F)(F)F)nc32)c1,Serotype 1A,EC50,M-HELA,plaque count,1.3 µM
COc1nc2ccc(OCCC3CCN(c4ccc(C)nn4)CC3)cc2o1,Serotype 2,EC50,MRC-5,cytopathic effect,0.159 µg/mL
Cc1c(-c2ccccc2)n(-c2ccc(F)cc2)c2ccc(C(C)C)cc2c1=O,50/A2#58,EC50,HELA-OHIO,cytopathic effect,0.038 µg/mL
Cc1ccccc1Cn1cnc2c(N(C)C)nc(C(F)(F)F)nc21,TYPE 1B,EC50,M-HELA,plaque count,0.29 µM
Clc1ccc2c(c1)CC(c1ccccc1)CO2,Serotype 1B,EC50,M-HELA,plaque count,0.266 µM
CCOC(=O)c1ccc(OCCCCC(=O)c2ccc(Cl)cc2)cc1,Serotype 2,EC50,HeLa,cytopathic effect,2.5 µM
Clc1ccc2c(c1)C=C(c1ccccc1)CO2,Serotype 1B,EC50,M-HELA,plaque count,7.258 µM
COC(=O)c1ccc(-c2oc3ccc(Cl)cc3c(=O)c2OC)cc1,TYPE 1B,EC50,OHIO HELA,plaque count,3.82 µM
Nc1ccc(/C=C/c2cc(=O)c3ccccc3o2)cc1,Serotype 1B,EC50,HeLa,plaque count,15.06 µM
CCOC(=O)c1ccc(OCCCCC(=O)c2ccc(C)cc2)cc1,serotype 1A 1B 2 6 14 15 21 22 25 29 30 41 42 45 59 63 67 70 72 86 89,MIC80,-,-,>293 µM
Clc1ccc2c(c1)C=C(c1ccc(Br)cc1)CO2,Serotype 1B,EC50,M-HELA,cytopathic effect,2.49 µM
CCOC(=O)c1ccc(OCCCCC(=O)c2ccc(C)c(C)c2)cc1,serotype 1A 1B 2 6 14 15 21 22 25 29 30 41 42 45 59 63 67 70 72 86 89,MIC80,-,-,>146 µM
N=c1c2ncn([C@@H]3O[C@H](CO)[C@@H](O)[C@H]3O)c2ncn1O,Type 1A/strain 2060,EC50,KB,cytopathic effect,3.2 µg/mL
CS(=O)(=O)c1cccnc1Oc1ccc(C(=O)c2ccccc2)cc1,TYPE 64,EC50,HeLa,cytopathic effect,>10 µg/mL
CCOC(=O)/C=C/[C@H](C[C@@H]1CCNC1=O)NC(=O)[C@@H](CC(=O)[C@@H](NC(=O)c1cc(C)on1)C(C)C)Cc1ccc(F)cc1,Isolate 28,EC50,OHIO HELA-I,cytopathic effect / visual reading,0.01 µg/mL
O=c1cc(/C=C/c2ccc(Cl)cc2)oc2ccc(Cl)cc12,Serotype 1B,EC50,HeLa,plaque count,9.27 µM
Clc1ccc(C2CCc3cc(C4=NCCO4)ccc3O2)cc1,TYPE 1B,EC50,HeLa,cytopathic effect,0.36 µM
CS(=O)(=O)c1ccc(Oc2ccc(C(=O)c3ccccc3)cc2)nc1,TYPE 2,EC50,HeLa,cytopathic effect,5 µg/mL
CCOC(=O)/C=C/[C@H](CCC(N)=O)NC(=O)[C@H](Cc1ccccc1)n1ccc(C)c(NC(=O)OCc2ccccc2)c1=O,14,EC50,HeLa,XTT,>0.033 µM
CS(=O)(=O)c1ccc(NCc2ccc(Br)cc2)nc1,TYPE 1A,EC50,HeLa,cytopathic effect,>10 µg/mL
CCOC(=O)c1ccc(OCCC2CCN(c3ccc(C)nn3)CC2)cc1,Serotype 1A,EC50,-,-,<0.95 µM
CCN(CC)c1noc(-c2ccc(O)cc2O)c1Cc1c(N(CC)CC)noc1-c1ccc(OC)cc1O,Serotype 14,EC50,HeLa,cytopathic effect,>3.5 µM
O=C(/C=C(\O)c1ccccc1O)/C=C/c1ccccc1,Serotype 1B,EC50,HeLa,plaque count,20.59 µM
CCOc1cc(CCCOc2c(C)cc(-c3noc(C)n3)cc2C)on1,Serotype 1A,EC50,HeLa,cytopathic effect,0.042 µg/mL
O=C(O)c1ccc(/C=C/C(=O)c2ccccc2O)cc1,TYPE 1B,EC50,OHIO HELA,plaque count,24.44 µM
CS(=O)(=O)c1ccc(NCCc2ccc(Cl)c(Cl)c2)nc1,TYPE 1A,EC50,HeLa,cytopathic effect,<1.3 µg/mL

A second listing of 10 rows from above:

smiles,strain,read-out,cell line,method,value
COc1nc2ccc(OCCC3CCN(c4ccc(C)nn4)CC3)cc2o1,Serotype 2,EC50,MRC-5,cytopathic effect,0.159 µg/mL
Cc1nc(-c2cc(C)c(OCCCc3cc(C(F)(F)F)no3)c(C)c2)no1,Serotype 2,EC50,HeLa,cytopathic effect,0.04 µg/mL
CCOC(=O)c1ccc(OCCCCC(=O)c2ccc(C)cc2)cc1,serotype 1A 1B 2 6 14 15 21 22 25 29 30 41 42 45 59 63 67 70 72 86 89,MIC80,-,-,>293 µM
CCN(CC)c1cc(-c2ccc(OC)cc2OC)on1,Serotype 72 (group A),EC50,HeLa,cytopathic effect,>362 µM
Cc1c(-c2ccccc2)n(-c2cccc(F)c2)c2ccc(C(C)C)cc2c1=O,50/A2#58,EC50,HELA-OHIO,cytopathic effect,0.023 µg/mL
Clc1ccc2c(c1)C=C(c1ccccc1)CO2,Serotype 1B,EC50,M-HELA,plaque count,7.258 µM
CCOC(=O)c1ccc(OCCC2CCN(c3ccc(C)nn3)CC2)cc1,Serotype 5,EC50,WI-38,cytopathic effect,<0.1 µg/mL
COC(=O)C(Cc1ccc(OCCCCC(=O)c2ccc(C)s2)cc1)NC(C)=O,TYPE 14,EC50,HeLa,cytopathic effect,>86 µM
CCOC(=O)c1ccc(OCCCCC(=O)c2ccc(C)c(C)c2)cc1,serotype 1A 1B 2 6 14 15 21 22 25 29 30 41 42 45 59 63 67 70 72 86 89,MIC80,-,-,>146 µM
CCOC(=O)c1ccc(OCCC2CCN(c3ccc(C)nn3)CC2)cc1,Serotype 1A,EC50,-,-,<0.95 µM